Pooled drug test results. Numbers come from NIAID ChemDB, via PubChem.

All rows: tests in culture; species: HIV-1

Neighbouring rows are from separate reports. ECn: concentration that inhibits the pathogen or its effect by n%. Blank or dashed fields: not listed here.

SMILES | setting | method | mutations | read-out | strain | cell line | value
CC(C)CN(CC(O)CN1CSC[C@H]1C(=O)NC(C)(C)C)S(=O)(=O)c1ccccc1 | - | p24 | - | EC90 | IIIB | CEM | 1 µM
Cc1cc(C#N)cc(C)c1Oc1nc(Nc2ccc(C#N)cc2)nc(N)c1Br | - | - | NL/2AZT | EC50 | - | TZM-bl | 0.036 µM
CCCc1cc(=O)oc2c3c(c4c(c12)OC(C)(C)CC4)O[C@@H](C)[C@H](C)[C@@H]3O | - | XTT | RT-T139I | EC50 | Calanolide A-resistant (RT T139I) | CEM + CEM-SS | >27 µM
OCCN(CCO)c1nc(-c2cccs2)cc(-c2cccs2)n1 | - | RT activity | - | EC50 | LAV | PBMC | 4.5 µM
COc1ccc(S(=O)(=O)N(CC(C)C)C(=O)C(=O)C(=O)[C@@H](Cc2ccccc2)NC(=O)OC(C)(C)C)cc1 | - | p24 | - | EC90 | IIIB | CEM | 1 µM
Cc1ccc(CN2CCN([C@H](C(=O)N[C@@H](Cc3ccccc3)[C@H](O)CN(CC(C)C)S(=O)(=O)c3ccc(/C=N/O)cc3)C(C)(C)C)C2=O)cn1 | - | cytopathic effect / MTT | - | EC50 | - | MT-4 | 0.001 µM
CCOCn1c(Sc2ccccc2)c(CC)c(=O)[nH]c1=S | - | syncytia | RT-L100I | EC50 | IIIB (TIBO 82150) (RT-L100I) | CEM | 0.06 µM
Cc1ccc(C)c(CS(=O)(=O)c2cccc[n+]2[O-])c1 | - | syncytia | - | EC50 | IIIB | CEM/MOLT-4 + CEM | >20 µg/mL
CS(=O)(=O)N1CCc2nc(C(=O)NCc3ccc(F)cc3)c(O)c(=O)n2CC1 | - | p24 | - | EC50 | - | MT-4 | <50 µM
Cc1ccc(C)c(CS(=O)c2ccc(Cl)c[n+]2[O-])c1 | - | - | - | EC50 | IIIB | CEM | 20 µg/mL
OCCN(CCO)CCOc1nc(-c2cccs2)cc(-c2cc3ccccc3s2)n1 | - | RT activity | - | EC50 | LAV | PBMC | 1.4 µM
CC(C)CN(C[C@@H](O)[C@H](Cc1ccccc1)NC(=O)O[C@H]1CO[C@H]2OCC[C@H]21)S(=O)(=O)c1ccc(N)c(NCC2CCCCC2)c1 | - | GFP | - | EC50 | IIIB WT | MT-4 | 0.000794 µM
Nc1ccn([C@H]2CC[C@@H](CO)O2)c(=O)n1 | - | β-galactosidase | E151K | EC50 | NL4-3 | - | 0.277 µM
CN1CCn2c(nc(C(=O)NCc3ccc(F)cc3)c(O)c2=O)C(N(C)C(=O)C(=O)N2CCOCC2)C1 | - | p24 | - | EC50 | - | MT-4 | <1 µM
CC1=C(C(=O)Nc2ccc(Cl)c(OCC=C(Cl)Cl)c2)SCCO1 | - | syncytia | RT-V106A | EC50 | Nevirapine-resistant isolate (RT V106A) | CEM | 2 µg/mL
O=C(c1ccccc1)N(CCc1ccccc1)C[C@H](O)CN(CC1CCCC1)S(=O)(=O)CC1CS(=O)(=O)CC1O | - | p24 | - | EC50 | IIIB | CEM | <1 µM
CCC(C)[C@@H](C(=O)N[C@@H](Cc1ccccc1)[C@H](O)CN(CC1CCCC1)S(=O)(=O)c1ccc(/C=N/O)cc1)N1CCN(Cc2cccc(C)n2)C1=O | - | cytopathic effect / MTT | PR-L10F V32I M46I I47V Q68E I84V | EC50 | A17 (LPV-resistant) | MT-4 | 0.0004 µM
N#Cc1ccc(Nc2nc(Oc3ccc(-c4ccc(C#N)cc4)c(F)c3F)c3sccc3n2)cc1 | - | MTT | - | EC50 | RES056 | MT-4 | >2.04 µM
CCOCn1c(Sc2cc(C)cc(C)c2)c(CC)c(=O)[nH]c1=S | - | syncytia | RT-K103N | EC50 | IIIB TIBO R82913-resistant (RT K103N) | CEM | 0.11 µM
CC(C)CN(C[C@@H](O)[C@H](Cc1ccccc1)NC(=O)O[C@H]1CO[C@H]2OCC[C@H]21)S(=O)(=O)c1ccc(N)c(NCC2CCN(C(=O)OC(C)(C)C)CC2)c1 | - | GFP | - | EC50 | IIIB WT | MT-4 | 0.00501 µM
CN(C)CCNc1nc(-c2cc3ccccc3s2)c2ccccc2n1 | - | RT activity | - | EC50 | LAV | PBMC | 1.7 µM
COCc1cccc(CN2CCN([C@H](C(=O)N[C@@H](Cc3ccccc3)[C@H](O)CN(CC(C)C)S(=O)(=O)c3ccc(/C=N/O)cc3)C(C)(C)C)C2=O)n1 | 50% human serum | cytopathic effect / MTT | - | EC50 | - | MT-4 | 0.023 µM
CC(C)CN(C[C@@H](O)[C@H](Cc1ccccc1)NC(=O)O[C@H]1CO[C@H]2OCC[C@H]21)S(=O)(=O)c1ccc(N)c(NCCc2cncn2CC2CCCCC2)c1 | - | GFP | - | EC50 | IIIB WT | MT-4 | 0.0813 µM
Cc1c(-c2ccc(SCCN(C)C)cc2)ncnc1-c1ccc(SCCN(C)C)cc1 | - | RT activity | - | EC50 | LAV | PBMC | 6 µM
Cc1cc(-c2ccc(C#N)cc2)ccc1Oc1nc(Nc2ccc(C#N)cc2)nc2ccsc12 | - | MTT | - | EC50 | IIIB | MT-4 | 0.0545 µM
CN1CCc2nc(C(=O)NCc3ccc(F)cc3)c(O)c(=O)n2C1=O | - | p24 | - | EC95 | - | MT-4 | <50 µM
Cc1cc(-c2ccc(C#N)cc2)cc(Cl)c1Oc1nc(Nc2ccc(C#N)cc2)nc2ccsc12 | - | MTT | E138K | EC50 | IIIB | MT-4 | 0.0527 µM
Cc1cc(C)c(CS(=O)c2cccc[n+]2[O-])c(C)c1 | - | β-galactosidase | - | EC50 | IIIB | MAGI | 6 µg/mL
CN(C)CCSc1cccc(-c2ccnc(SCCN(C)C)n2)c1 | - | RT activity | - | EC50 | LAV | PBMC | 9.3 µM
CCCCCCCCN(CC(CCCCCCCCCn1c(=O)c2c(ncn2C)n(C)c1=O)OC(C)=O)C(C)=O | - | p24 | - | EC50 | JR-CSF | PBL | 1 µM
Cc1cc(C)cc(Sc2c(C(C)C)c(=O)[nH]c(=S)n2COCCO)c1 | - | syncytia | RT-Y181C | EC50 | IIIB | CEM | 0.34 µM
CN1N=C(N)c2cn([C@@H]3O[C@H](COP(=O)(O)O)[C@@H](O)[C@H]3O)c3ncnc1c23 | - | cytopathic effect / XTT | - | EC50 | LAV | CEM + CEM-SS | 0.07 µM
CC(C)c1c(Sc2ccccc2)n(COCc2ccccc2)c(=O)[nH]c1=O | - | syncytia | RT-Y181C | EC50 | IIIB | CEM | 0.3 µM
Cc1ccc(S(=O)(=O)N2CCn3c(nc(C(=O)NCc4ccc(F)cc4)c(O)c3=O)C2)cc1 | - | p24 | - | EC95 | - | MT-4 | <50 µM
Cc1occc1C(=S)Nc1ccc(Cl)c(SCC=C(Cl)Cl)c1 | - | syncytia | RT-E138K | EC50 | TSAO-m3T-resistant (RT E138K) | CEM | 0.03 µg/mL
N#Cc1ccc(Nc2nc(Oc3c(F)cc(-c4ccc(C#N)cc4)cc3F)c3sccc3n2)cc1 | - | MTT | E138K | EC50 | IIIB | MT-4 | 0.0166 µM
C=C(Cl)COc1cc(NC(=S)c2ccoc2C)ccc1Cl | - | syncytia | RT-K103N | EC50 | TIBO R82913-resistant (RT K103N) | CEM | 0.65 µg/mL
CN(C)CC1c2nc(C(=O)NCc3ccc(F)cc3)c(O)c(=O)n2CCN1S(C)(=O)=O | - | p24 | - | EC50 | - | MT-4 | <50 µM
CCc1c(Sc2cc(C)cc(C)c2)n(COCc2ccccc2)c(=S)[nH]c1=O | - | syncytia | RT-L100I | EC50 | IIIB (TIBO 82150) (RT-L100I) | CEM | 0.008 µM
CNc1cc(S(=O)(=O)N(CC(C)C)C[C@@H](O)[C@H](Cc2ccccc2)NC(=O)O[C@H]2CO[C@H]3OCC[C@H]32)ccc1N | - | GFP | - | EC50 | IIIB WT | MT-4 | 0.0229 µM
O=C(Nc1ncnc2c1ncn2[C@@H]1O[C@H](CO)C[C@@H]1F)c1ccccc1 | - | RT activity | - | EC50 | HXB2 Recombinant | MT-2 | 0.35 µM
CC(C)CN(CC(O)CN(CC(C)C)S(=O)(=O)c1ccc(N)cc1)S(=O)(=O)c1ccccc1 | - | p24 | - | EC90 | IIIB | CEM | 1 µM
CCOCn1c(Cc2ccccc2)c(C(C)C)c(=O)[nH]c1=O | - | syncytia | Nevirapine resistant (RT Y181C) | EC50 | IIIB | CEM | 0.23 µM
C/C(Cl)=C/COc1cc(NC(=O)c2ccoc2C)ccc1Cl | - | syncytia | RT-V106A | EC50 | Nevirapine-resistant isolate (RT V106A) | CEM | 0.15 µg/mL
CC(C)c1c(Sc2ccccc2)n(COCCO)c(=S)[nH]c1=O | - | syncytia | RT-K103N | EC50 | IIIB TIBO R82913-resistant (RT K103N) | CEM | >10 µM
CCCCCCCCCCCCCCCCCCOCCOP(=O)(O)CO[C@H](CO)Cn1cnc2c(=O)[nH]c(N)nc21 | - | p24 / ELISA | V75I F77L F116Y Q151M | EC50 | NRTI-MDR | PBMC | 0.061 µM
CCC(C)[C@@H](C(=O)N[C@@H](Cc1ccccc1)[C@H](O)CN(CC1CCCC1)S(=O)(=O)c1ccc(/C=N/O)cc1)N1CCN(Cc2cnccc2C)C1=O | - | cytopathic effect / MTT | - | EC50 | - | MT-4 | 0.001 µM
Nc1cccc(S(=O)(=O)N(CC2CCCC2)C[C@@H](O)CN(CCc2ccccc2)C(=O)O[C@@H]2COC3OCCC32)c1 | - | p24 | - | EC90 | IIIB | CEM | 0.1 µM
CC1(C)c2nc(C(=O)NCc3ccc(F)cc3)c(O)c(=O)n2CCN1CC#N | - | p24 | - | EC50 | - | MT-4 | <1 µM
Cc1cnc(SCCN(C)C)nc1-c1ccc(-c2nc(SCCN(C)C)ncc2C)s1 | - | RT activity | - | EC50 | LAV | PBMC | 2.5 µM
CCC(C)[C@@H](C(=O)N[C@@H](Cc1ccccc1)[C@H](O)CN(CC(C)C)S(=O)(=O)c1ccc(/C=N/O)cc1)N1CC(=O)N(Cc2ccccn2)C1=O | - | cytopathic effect / MTT | PR-L10F V32I M46I I47V Q68E I84V | EC50 | A17 (LPV-resistant) | MT-4 | 0.006 µM
CCCCCCCCCCCCCCCCCCOCCOP(=O)(O)CO[C@H](CO)Cn1cnc2c(N)nc(N)nc21 | - | p24 / ELISA | V75I F77L F116Y Q151M | EC50 | NRTI-MDR | PBMC | 0.016 µM
Nc1nc(NC2CC2)c2ncn([C@H]3CO[C@@H](CO)O3)c2n1 | - | RT activity | RT-V75I | EC50 | HXB2(RT-V75I) Recombinant | MT-2 | 1.1 µM
C=C(Cl)COc1cc(NC(=S)c2ccsc2C)ccc1C#N | - | syncytia | RT-E138K | EC50 | TSAO-m3T-resistant (RT E138K) | CEM | 0.13 µg/mL
CCCCCCCCCCCCCCCCCCOCCOP(=O)(O)CO[C@H](CO)Cn1cc(C)c(=O)[nH]c1=O | - | p24 / ELISA | - | EC50 | LAI | MT-2 | >10 µM
CCOCn1c(Sc2ccccc2)c(C(C)C)c(=O)[nH]c1=S | - | syncytia | RT-K103N | EC50 | IIIB TIBO R82913-resistant (RT K103N) | CEM | 1 µM
O=C(c1ccccc1)N(CCc1ccccc1)C[C@H](O)CN(CC1CCCC1)S(=O)(=O)C1CCCS(=O)(=O)C1 | - | p24 | - | EC50 | IIIB | CEM | <1 µM
Cc1cc(C)cc(S(=O)(=O)c2c(C(=O)NCCO)[nH]c3ccc(Cl)cc23)c1 | - | p24 | - | EC50 | IIIB WT | C8166 | <0.005 µM
CCOCn1c(Sc2cc(C)cc(C)c2)c(CC)c(=O)[nH]c1=O | - | syncytia | RT-K103N | EC50 | IIIB TIBO R82913-resistant (RT K103N) | CEM | 0.07 µM